One compound from paper PMC10046907 (Current Issues in Molecular Biology, 2023) can be followed below.

This assay deals with neuraminidase from A/Chicken/Korea/MS96/96 (H9N2) (Influenza A virus (A/Chicken/Korea/MS96/96(H9N2)), UniProt Q9J458). Nature of the assay: Chemiluminescent neuraminidase inhibition (NAI) assay, H9N2. It is filed as biochemical, influenza A viruses. To be noted: read-out: Neuraminiase IC50.

Structures are written as SMILES.

The term IC50 denotes the concentration at which inhibition is half-maximal. As to `CCOC(=O)C1=C[C@@H](OC(CC)CC)[C@H](NC(C)=O)[C@@H](N)C1` [Olseltamivir, oseltamivir, reference compound], the IC50 amounted to 5 nM.
